Results of unrelated studies side by side (data: NIAID ChemDB).

Shared fields: tests on isolated targets; agent: Human cytomegalovirus; target: Protease; measure: IC50

Rows are shuffled and stem from different studies. ICn: concentration for n% inhibition. An empty or dashed field is not shown.

smiles,read by,strain or isolate,result
O=C1C[C@H](Cc2cccs2)N1C(=O)NCc1ccc(C(F)(F)F)cc1,-,-,4.5 µM
C[C@@H](Nc1nc2ccc(Cl)cc2c(=O)o1)c1ccccc1,-,-,>10 µM
CC(=O)O[C@@H]1CC(=O)N1,-,-,>500 µM
CC(=O)N1C(=O)[C@H](C)[C@H]2[C@H]1CCN2C(=O)C1CCCN1S(=O)(=O)c1ccc(C)cc1,-,AD169,14 µM
Cc1c(NC(=O)OC(C)(C)C)ccc2nc(N(CC(=O)OC(C)(C)C)c3ccccc3)oc(=O)c12,-,-,3 µM
CC[C@@H](NC(=O)N1C(=O)C[C@@H]1CSc1nc2ncccc2s1)c1ccccc1,-,-,2.8 µM
CC1(C)CC(=O)C(C2=C(Cl)C(=O)c3ccccc3C2=O)C(=O)C1,HPLC,-,0.72 µM
O=C1C[C@H](Cc2ccccn2)N1C(=O)NCc1ccc(C(F)(F)F)cc1,-,-,63 µM
CC(C)c1ccc(NC(=O)N2CCC[C@H]2C(=O)N2CC[C@H]3[C@H]2[C@H](C)C(=O)N3C(=O)c2ccc([N+](=O)[O-])cc2)cc1,-,AD169,>24 µM
O=C1C(OC2CCCCC2)=C(C2CCCCC2)C(=O)c2ccccc21,scintillation proximity,-,148 µM
CC[C@@H](NC(=O)N1C(=O)C[C@@H]1CSc1ccccn1)c1ccccc1,-,-,6.3 µM
CNC(=O)N1C(=O)C[C@H]1OC(C)=O,-,-,<500 µM
COC(=O)[C@H](Cc1ccc(OC)cc1)Nc1nc2ccc(NC(=O)OC(C)(C)C)c(C)c2c(=O)o1,-,-,0.52 µM
CC[C@@H](NC(=O)N1C(=O)C[C@@H]1CSc1ncccn1)c1ccccc1,-,-,3.1 µM
Cc1ccc(C)c(CS(=O)c2nc3ccccc3[nH]2)c1N,-,-,11 µM
Cc1cccc2nc(N[C@@H](Cc3ccccc3)C(=O)OC(C)(C)C)oc(=O)c12,-,-,0.74 µM
COc1c(C)cc(N)c(CS(=O)c2nc3ccc(Cl)cc3[nH]2)c1C,-,-,1.4 µM
O=C1C[C@H](Cc2nc3ccccc3s2)N1C(=O)NCc1ccc([N+](=O)[O-])cc1,-,-,0.7 µM
Cc1ccc(CS(=O)c2nc3ccccc3[nH]2)c(N)c1C,-,-,3.7 µM
Cc1cccc2nc(N(C)Cc3ccccc3)oc(=O)c12,-,-,10 µM
CC[C@H](NC(=O)N1C(=O)C[C@@H]1CSc1ncccn1)c1ccccc1,-,-,17 µM
CC(C)c1ccc(NC(=O)N2CCC[C@H]2C(=O)N2CC[C@H]3[C@H]2[C@H](C)C(=O)N3C(=O)c2nc3ccccc3s2)cc1,-,AD169,>24 µM
COC(=O)[C@H](Cc1ccc(I)cc1)Nc1nc2ccc(NC(=O)OC(C)(C)C)c(C)c2c(=O)o1,-,-,0.27 µM
Cn1nnc(C[C@H]2CC(=O)N2C(=O)NCc2ccc([N+](=O)[O-])cc2)n1,-,-,2.7 µM

The first 3 rows once more:

smiles | read by | strain or isolate | result
O=C1C[C@H](Cc2cccs2)N1C(=O)NCc1ccc(C(F)(F)F)cc1 | - | - | 4.5 µM
C[C@@H](Nc1nc2ccc(Cl)cc2c(=O)o1)c1ccccc1 | - | - | >10 µM
CC(=O)O[C@@H]1CC(=O)N1 | - | - | >500 µM